Anti-infective test results gathered from many reports (values: NIAID ChemDB through PubChem).

Shared fields: growth or infection tests; organism: Herpes simplex virus 1; read by: ELISA; endpoint: EC50

Neighbouring rows are from separate reports.

smiles	cell line	strain or isolate	value
CC[C@@H](N(C)C(=O)[C@@H](NC(=O)[C@@H](CC(=O)[C@@H](NC(=O)[C@H](C(C)C)N(C)C(=O)[C@H](C)[C@@H](C)C1CCCCC1)C(C)(C)C)CC(=O)C(C)(C)C)C1(C(=O)O)CCCC1)C(C)(C)C	BHK-21	-	0.2 µM
CCCN(CCC)S(=O)(=O)c1cccc(Nc2nc(Nc3cccc(S(=O)(=O)N(CCC)CCC)c3)nc(Nc3ccc(Nc4ccc(-c5ccc(Nc6ccc(Nc7nc(Nc8cccc(S(=O)(=O)N(CCC)CCC)c8)nc(Nc8cccc(S(=O)(=O)N(CCC)CCC)c8)n7)cc6S(=O)(=O)[O-])cc5S(=O)(=O)O)c(S(=O)(=O)O)c4)c(S(=O)(=O)[O-])c3)n2)c1	VERO	Patton	>25 µM
Nc1nc2c(ncn2COC(CO)CO)c(=O)[nH]1	HFF	-	3.5 µM
CCCCCCCCCCCCCCCC(=O)NC(C)(C)C(=O)N1C[C@@H](O)C[C@H]1C(=O)N[C@@H](CC(C)C)C(=O)N[C@H](C(=O)N[C@@H](CCC(N)=O)C(=O)N[C@@H](CC(C)C)C(=O)OC)C(C)C	VERO	-	1.7 µM
Nc1ncnc2c1ncn2/C=C1\[C@H](CO)C1(F)F	BSC-1	-	70 µM
Nc1ncc2c(ncn2/C=C2\CC2CO)n1	-	-	>100 µM
O=C(Nc1ccc(NC(=S)Nc2cc3ccccc3o2)cc1)c1nccc2ccccc12	VERO	-	>10 µg/mL
CN1N=C(N)c2cn([C@@H]3O[C@H](CO)[C@@H](O)[C@H]3O)c3nc(Cl)nc1c23	BSC-1	KOS	>100 µM
CCCCCCCCCCCCCC(=O)N[C@H](C)C(=O)N1C[C@@H](O)C[C@H]1C(=O)N[C@@H](CC(C)C)C(=O)N[C@H](C(=O)N[C@@H](CCC(N)=O)C(=O)N[C@@H](CC(C)C)C(=O)OC)C(C)C	VERO	-	9.3 µM
CCC[C@]1(CC(=O)O)OCCc2c1[nH]c1c(C)ccc(C#N)c21	VERO	KOS	>100 µM
COC(=O)[C@H](C)NP(=O)(OCC1C/C1=C/n1cnc2c(=O)[nH]c(N)nc21)Oc1ccccc1	BSC-1	-	>100 µM
COC(=O)[C@H](CC(C)C)NC(=O)[C@H](CCC(N)=O)NC(=O)[C@@H](NC(=O)[C@H](CC(C)C)NC(=O)[C@@H]1C[C@H](O)CN1C(=O)C(C)(C)NC(=O)CCCCCCCCCCCCCCCO)C(C)C	VERO	-	2.3 µM
Nc1nc2c(ncn2COC(CO)CO)c(=O)[nH]1	BSC-1	KOS	3.5 µM
COc1cc(OCc2ccccc2)c(NC(=S)Nc2ccc(NC(C)=O)cc2)cc1Cl	VERO	-	7 µg/mL
NC(=O)CCCN(CCCC(N)=O)S(=O)(=O)c1cccc(Nc2nc(Nc3cccc(S(=O)(=O)N(CCCC(N)=O)CCCC(N)=O)c3)nc(Nc3ccc(-c4ccc(Nc5nc(Nc6cccc(S(=O)(=O)N(CCCC(N)=O)CCCC(N)=O)c6)nc(Nc6cccc(S(=O)(=O)N(CCCC(N)=O)CCCC(N)=O)c6)n5)cc4S(=O)(=O)O)c(S(=O)(=O)O)c3)n2)c1	-	Patton	8.9 µM
O=C(Nc1ccccc1NC(=S)NCCOc1cccc(Cl)c1)c1ccccc1F	VERO	-	10 µg/mL
COc1cc(OC)c(NC(=S)Nc2ccc(NC=O)cc2Cl)cc1Cl	HFF	Patton	3 µg/mL
Nc1ncnc2c1ncn2/C=C1/CC1(CO)CO	BSC-1	-	>100 µM
Nc1nc2c(ncn2CCC(CO)CO)c(=O)[nH]1	HEL	20 clinical isolates	0.8 µg/mL
Nc1nc2cc(Cl)c(Cl)cc2n1[C@H]1C[C@H](O)[C@@H](CO)O1	HFF	-	>100 µM
CC(=O)O[C@@H]1C[C@H](O)C23COC(O)[C@]1(C)C2C[C@@H](O)C1(C)C3C(=O)[C@H](OC(C)=O)[C@@]2(C)[C@H](c3ccoc3)CC3OC312	VERO	-	1.46 µg/mL
CC(=O)Nc1ccc(NC(=S)NC(C)c2ccc(F)cc2)cc1	VERO	-	>10 µg/mL
CC[C@@H](NC(=O)[C@@H](CC(=O)[C@@H](CC(=O)[C@@H](NC(=O)[C@H](C(C)C)N(C)C(=O)[C@H](C)CC1CCCCC1)C(C)(C)C)CC(=O)C(C)(C)C)C1(C(=O)O)CCCC1)C(C)(C)C	BHK-21/C13	DLSPTK	0.46 µM
CCc1nc2c3c(cn([C@@H]4O[C@H](CO)[C@@H](O)[C@H]4O)c3n1)C(N)=NN2C	BSC-1	KOS	>100 µM
Cc1cc2nc3c4ccccc4n(CCN(C)C)c3nc2cc1C	RK-13	C42	4.17 µM
CC(NC(=S)Nc1ccc(NC(=O)c2nccc3ccccc23)cc1)c1cc2ccccc2o1	HFF	Patton	>10 µg/mL
Nc1ncnc2c1ncn2[C@H]1C[C@]12C[C@H]2CO	BSC-1	-	70 µM
CN(C)c1c(C=O)c2cc(Cl)c(Cl)cc2n1[C@@H]1O[C@H](CO)[C@@H](O)[C@H]1O	BSC-1	-	15 µM
Nc1ncc2ncn(/C=C3\CC3CO)c2n1	-	-	>100 µM
OC[C@H]1O[C@@H](n2c(Cl)nc3cc(Cl)c(Cl)cc32)[C@H](O)[C@@H]1O	HFF	-	102 µM
OC[C@H]1O[C@@H](n2c(SCc3ccccc3)nc3cc(Cl)c(Cl)cc32)C[C@@H]1O	HFF	-	>100 µM
OC[C@@H]1O[C@@H](n2c(Cl)nc3cc(Cl)c(Cl)cc32)[C@H](O)[C@H]1O	HFF	-	>100 µM
Nc1nc2c(ncn2COC(CO)CO)c(=O)[nH]1	BSC-1	KOS	3.5 µM
CC(=O)O[C@H]1O[C@@H](SC2=N/C(=C\c3ccccc3)C(=O)N2c2ccccc2)[C@H](OC(C)=O)[C@@H](OC(C)=O)[C@@H]1OC(C)=O	VERO	McIntyre	>100 µM
OC[C@H]1O[C@@H](n2c(=S)[nH]c3cc(Cl)c(Cl)cc32)C[C@@H]1O	HFF	-	>100 µM
COc1cc(NC(=O)c2ccccc2F)ccc1NC(=S)NC1=CC(Cl)C(C)(OC)C=C1	VERO	-	0.05 µg/mL
CN1N=C(N)c2cn([C@@H]3O[C@H](CO)[C@@H](O)[C@H]3O)c3nc(N)nc1c23	BSC-1	KOS	>100 µM
Cc1cc2nc(Cl)n([C@H]3C[C@H](O)[C@@H](CO)O3)c2cc1C	HFF	-	>100 µM
CC/C=C/C/C=C/C/C=C/CCCCCCCC(=O)NC(C)(C)C(=O)N1C[C@@H](O)C[C@H]1C(=O)N[C@@H](CC(C)C)C(=O)N[C@H](C(=O)N[C@@H](CCC(N)=O)C(=O)N[C@@H](CC(C)C)C(=O)OC)C(C)C	VERO	-	8.5 µM
COC(=O)C(Cc1c[nH]c2ccccc12)NP(=O)(O)OCC1C/C1=C/n1cnc2c(N)ncnc21	BSC-1	-	15 µM
COc1c(C#N)c2cc(Cl)c(Cl)cc2n1[C@@H]1O[C@H](CO)[C@@H](O)[C@H]1O	BSC-1	-	20 µM
Nc1nc(Cl)c2ncn(/C=C3/C[C@H]3CO)c2n1	VERO	KOS	31 µM
COc1c(C=O)c2cc(Cl)c(Cl)cc2n1[C@@H]1O[C@H](CO)[C@@H](O)[C@H]1O	BSC-1	-	20 µM
OCCCOCc1c(Cl)nc2ccc(Cl)cn12	BSC-1	KOS	60 µM
COc1cc(OC)c(NC(=S)Nc2ccc(NC(C)=O)cc2)cc1Cl	VERO	-	50 µg/mL
Nc1ncnc2c1ncn2[C@H]1C[C@@]12C[C@H]2CO	BSC-1	-	>100 µM
CC(C)Nc1nc2cc(Cl)c(Cl)cc2n1[C@@H]1O[C@@H](CO)[C@H](O)[C@H]1O	HFF	-	>100 µM
Cn1c(=O)ccn(/C=C2/CC2(CO)CO)c1=O	BSC-1	-	10 µM
Cn1c(Cl)c([C@@H]2O[C@H](CO)[C@@H](O)[C@H]2O)c2cc(Cl)c(Cl)cc21	BSC-1	-	>100 µM
c1ccc2nc3c(nc2c1)c1ccccc1n3Cc1nccs1	RK-13	C42	>30 µM
Clc1cc2nc(Cl)c(CSCc3ccccc3)n2cc1Cl	BSC-1	KOS	>100 µM
OC[C@H]1O[C@@H](c2c(SCc3ccccc3)[nH]c3cc(Cl)c(Cl)cc23)[C@H](O)[C@@H]1O	BSC-1	-	>100 µM

The first 3 rows once more:

smiles,cell line,strain or isolate,value
CC[C@@H](N(C)C(=O)[C@@H](NC(=O)[C@@H](CC(=O)[C@@H](NC(=O)[C@H](C(C)C)N(C)C(=O)[C@H](C)[C@@H](C)C1CCCCC1)C(C)(C)C)CC(=O)C(C)(C)C)C1(C(=O)O)CCCC1)C(C)(C)C,BHK-21,-,0.2 µM
CCCN(CCC)S(=O)(=O)c1cccc(Nc2nc(Nc3cccc(S(=O)(=O)N(CCC)CCC)c3)nc(Nc3ccc(Nc4ccc(-c5ccc(Nc6ccc(Nc7nc(Nc8cccc(S(=O)(=O)N(CCC)CCC)c8)nc(Nc8cccc(S(=O)(=O)N(CCC)CCC)c8)n7)cc6S(=O)(=O)[O-])cc5S(=O)(=O)O)c(S(=O)(=O)O)c4)c(S(=O)(=O)[O-])c3)n2)c1,VERO,Patton,>25 µM
Nc1nc2c(ncn2COC(CO)CO)c(=O)[nH]1,HFF,-,3.5 µM

Blank or dashed fields: not listed here. ECn: concentration that inhibits the pathogen or its effect by n%.